Results from paper PMC11032465, “Structure and design of Langya virus glycoprotein antigens” (2024).

Assays:
[1] = molecular target: LayV F N95C/A114C ectodomain fused to a C-terminal GCN4 trimerization motif (Langya virus); test: negative-stain EM
[2] = molecular target: LayV F I167F/S186P ectodomain fused to a C-terminal GCN4 trimerization motif (Langya virus); test: negative-stain EM

Substance | stoichiometry N [1] | stoichiometry N [2]
LayV F N95C/A114C ectodomain fused to a C-terminal GCN4 trimerization motif (domain or fragment) | 3 | –
LayV F I167F/S186P ectodomain fused to a C-terminal GCN4 trimerization motif (domain or fragment) | – | 3
